A mixed list of measured activities; the numbers were collected in NIAID ChemDB.

Shared fields: toxicity to cultured cells; cells: Huh 5-2; measure: CC50

CCn: concentration that lowers growth or viability of the cells by n%. Lines come from different laboratories, so protocols vary. An empty or dashed field is not shown.

structure	read by	result
COC(=O)/C=C1\S/C(=N/N=C/c2ccc(N(C)C)cc2)NC1=O	MTS / absorbance	>50 µM
[N-]=[N+]=NC[C@@]1(O)[C@@H](CO)O[C@@H](n2cnc3cncnc32)[C@@H]1O	WST	>100 µM
Nc1ccc(S(=O)(=O)/N=C2/NC(=O)/C(=C/c3ccc(-c4ccccc4)cc3)S2)cc1	MTS	>115 µM
NC(=O)c1nc(C#CCC2(O)CCCC2)n(COCCO)n1	-	>50 µg/mL
COc1ccc(N(Cc2c(Cl)cccc2Cl)S(=O)(=O)c2cccc(C#N)c2)cc1C(=O)O	absorbance	>33 µM
Brc1ccc(Cn2cc3nc(-c4ccccc4)nc-3c(Br)c2)cc1	-	8 µg/mL
O=C1N/C(=N\S(=O)(=O)c2ccc(Cl)cc2)S/C1=C\c1ccccc1Cl	MTS	>121 µM
NC(=O)c1nc(C#CCCCCCl)n(COCCO)n1	-	>50 µg/mL
O=c1ccoc2cc(-c3ccccc3)c(OCc3cccc(Br)c3)c(O)c12	WST	39 µM
COc1ccc(/C=C2\S/C(=N/S(=O)(=O)c3ccc(C)cc3)NC2=O)cc1	MTS	68.04 µM
COc1ccc(CC#Cc2nc(C(N)=O)nn2COCCO)cc1	-	>50 µg/mL
O=C1N/C(=N\S(=O)(=O)c2ccc(F)cc2)S/C1=C\c1ccccc1Cl	MTS	115 µM
[N-]=[N+]=NC[C@@]1(O)[C@@H](CO)O[C@@H](n2cnc3c(N)ncnc32)[C@@H]1O	WST	12.3 µM
Cc1cc(C)c2c(=O)c3cc(N)c(N4CCN(c5ccccn5)CC4)cc3n(C)c2c1	-	>50 µg/mL
Brc1ccc(Cn2ccc3nc(-c4ccccn4)nc-3c2)cc1	-	24 µg/mL
O=C(O)c1cc(C2CCCCC2)c(=O)n2c1sc1ccc(OC3CCCCC3)cc12	MTS	23 µM
CNc1ncnc2c1ncn2[C@@H]1O[C@H](CO)[C@](O)(CF)[C@H]1O	WST	>100 µM
CC(=O)OC[C@H]1O[C@@H](n2c(=S)[nH]c3cc(C)ccc32)[C@H](OC(C)=O)[C@@H](OC(C)=O)[C@@H]1OC(C)=O	-	>101 µM
COC(=O)/C=C1\S/C(=N/N=C/c2ccc(OCc3ccccc3)cc2)NC1=O	MTS / absorbance	>50 µM
COc1cccc(COc2c(-c3ccccc3)cc3occc(=O)c3c2O)c1	WST	45 µM
NC(=O)c1nc(C#CCc2ccc(C(F)(F)F)cc2)n(COCCO)n1	-	20 µg/mL
COC(=O)/C=C1\S/C(=N/N=C/c2c(F)cccc2Cl)NC1=O	MTS / absorbance	>50 µM
O=c1ccoc2cc(-c3ccccc3)c(OCc3cccc([N+](=O)[O-])c3)c(O)c12	WST	35 µM

For reference, 2 entries again:

structure | read by | result
COC(=O)/C=C1\S/C(=N/N=C/c2c(F)cccc2Cl)NC1=O | MTS / absorbance | >50 µM
COC(=O)/C=C1\S/C(=N/N=C/c2ccc(OCc3ccccc3)cc2)NC1=O | MTS / absorbance | >50 µM